Data set [1] deals with A431 cells. In words: MTT cell viability assay, A431. The class given is cell-based. To be noted: A431, 96 h, varying concentrations.
Data set [2] relates to MCF-7 cells. In words: MTT cell viability assay, MCF-7. The class given is cell-based. To be noted: MCF-7, 96 h, varying concentrations. For orientation: Tetrazolium dyes change colour on reduction, which living cells bring about.

Turning to “affibody 16: affibody ZEGFR with thiazolidine-capped N-terminal CG- and C-terminal -NGL (Thz-SEQ ID NO:38)”, the cytotoxic effect entry in data set [1] and in data set [2] was “little cytotoxic effect even at very high concentrations” throughout.

These data come from patent publication US20240117402A1, “METHODS FOR (POLY) PEPTIDE TANDEM LIGATION AND CYCLIZATION” (Nanyang Technological University, priority 2021, published 2024).
